Reference: ChEMBL document CHEMBL1150695, “The synthesis of SO-3, a conopeptide with high analgesic activity derived from Conus striatus” (2003)

Test system: Rattus norvegicus
Test: Toxicity in rat at 2 ug/kg administered intrathecally daily for 15 days measured after day 15
Details: in vivo, icv_or_intrathecal, 0.002 mg/kg, 360 h

Compound: CC[C@H](C)[C@@H]1NC(=O)[C@H](CCCNC(=N)N)NC(=O)[C@H](CO)NC(=O)[C@@H]2CSSC[C@@H]3NC(=O)[C@H](CO)NC(=O)CNC(=O)[C@H]([C@H](C)O)NC(=O)[C@H](CSSC[C@H](N)C(=O)N[C@@H](CCCCN)C(=O)N[C@@H](C)C(=O)N[C@@H](C)C(=O)NCC(=O)N[C@@H](CCCCN)C(=O)N4CCC[C@H]4C(=O)N2)NC(=O)[C@H](CSSC[C@@H](C(N)=O)NC(=O)[C@H](CCCCN)NC(=O)CNC(=O)[C@H](CO)NC(=O)[C@H](CCCNC(=N)N)NC3=O)NC(=O)[C@H](CC(N)=O)NC(=O)[C@H](Cc2ccc(O)cc2)NC(=O)[C@H](C)NC1=O
- Activity: Non-toxic
